Starred links: 1 amine or outer side, 2 acyl side, 3 side chain; linkers in the order of their positions; H or OH if unused. Non-standard residues stand in square brackets, D forms with d. Residues, ends and D or L forms follow the SMILES beside them. N(1S-Me-propyl)Gly = CC[C@H](C)NCC(=O)O; Dopa = N[C@@H](Cc1ccc(O)c(O)c1)C(=O)O; X1 = O=C(CN(CC(F)(F)F)[*:1])[*:2]; Nspe = C[C@H](NCC(=O)O)c1ccccc1; Nlys = NCCCCNCC(=O)O; Nme = COCCNCC(=O)O
Tested on: human serum protein
Test: Short-term (20 min) human serum protein adsorption on modified TiO2 sensors using OWLS
Conditions: for Serum protein adsorption: compared with unmodified TiO2 or PMP1-modified sensors

| Compound | Serum protein adsorption | Adsorbed mass Serum (Table 7, human serum, 20 min, 37° C., OWLS, mean ± SD) [ng/cm^2] |
| --- | --- | --- |
| COCCN(CC(=O)N(CCOC)CC(=O)N(CCOC)CC(=O)N(CCOC)CC(=O)N(CCOC)CC(=O)N(CCOC)CC(=O)N(CCOC)CC(=O)N(CCOC)CC(=O)N(CCOC)CC(=O)N(CCOC)CC(=O)N(CC(=O)N[C@@H](Cc1ccc(O)c(O)c1)C(=O)N[C@@H](CCCCN)C(=O)N[C@@H](Cc1ccc(O)c(O)c1)C(=O)N[C@@H](CCCCN)C(=O)N[C@@H](Cc1ccc(O)c(O)c1)C(N)=O)CC(F)(F)F)C(=O)CN(CCOC)C(=O)CN(CCOC)C(=O)CN(CCOC)C(=O)CN(CCOC)C(=O)CN(CCOC)C(=O)CN(CCOC)C(=O)CN(CCOC)C(=O)CN(CCOC)C(=O)CN(CCOC)C(=O)CN(CCOC)C(=O)CN(C(=O)CN(C(=O)CN(CCCCN)C(=O)CN(C(=O)CN(C(=O)CN(CCCCN)C(=O)[C@@H]1CCCN1C(=O)CN(C(=O)CN(CCCCN)C(=O)CN(C(=O)CN(C(=O)CNCCCCN)[C@@H](C)c1ccccc1)[C@@H](C)c1ccccc1)[C@@H](C)c1ccccc1)[C@@H](C)c1ccccc1)[C@@H](C)c1ccccc1)[C@@H](C)c1ccccc1)[C@@H](C)c1ccccc1 [PMP1-AMP] (H-[Nlys][Nspe][Nspe][Nlys][Nspe]P[Nlys][Nspe][Nspe][Nlys][Nspe][Nspe][Nme][Nme][Nme][Nme][Nme][Nme][Nme][Nme][Nme][Nme][Nme][Nme][Nme][Nme][Nme][Nme][Nme][Nme][Nme][Nme][X1][Dopa]K[Dopa]K[Dopa]-NH2) | significantly lower than on unmodified TiO2 sensors |  |
| CC[C@H](C)N(CC(=O)N(CCCCN)CC(=O)N(CC(=O)N(CC(=O)N(CCCCN)CC(=O)N(CC(=O)N(CC(=O)N(CCCCN)CC(=O)N(CC(=O)N(CC(=O)N(CCOC)CC(=O)N(CCOC)CC(=O)N(CCOC)CC(=O)N(CCOC)CC(=O)N(CCOC)CC(=O)N(CCOC)CC(=O)N(CCOC)CC(=O)N(CCOC)CC(=O)N(CCOC)CC(=O)N(CCOC)CC(=O)N(CCOC)CC(=O)N(CCOC)CC(=O)N(CCOC)CC(=O)N(CCOC)CC(=O)N(CCOC)CC(=O)N(CCOC)CC(=O)N(CCOC)CC(=O)N(CCOC)CC(=O)N(CCOC)CC(=O)N(CCOC)CC(=O)N(CC(=O)N[C@@H](Cc1ccc(O)c(O)c1)C(=O)N[C@@H](CCCCN)C(=O)N[C@@H](Cc1ccc(O)c(O)c1)C(=O)N[C@@H](CCCCN)C(=O)N[C@@H](Cc1ccc(O)c(O)c1)C(N)=O)CC(F)(F)F)[C@@H](C)CC)[C@@H](C)CC)[C@@H](C)CC)[C@@H](C)CC)[C@@H](C)CC)[C@@H](C)CC)C(=O)CN(C(=O)CNCCCCN)[C@@H](C)CC [PMP1-C, reference compound] (H-[Nlys][N(1S-Me-propyl)Gly][N(1S-Me-propyl)Gly][Nlys][N(1S-Me-propyl)Gly][N(1S-Me-propyl)Gly][Nlys][N(1S-Me-propyl)Gly][N(1S-Me-propyl)Gly][Nlys][N(1S-Me-propyl)Gly][N(1S-Me-propyl)Gly][Nme][Nme][Nme][Nme][Nme][Nme][Nme][Nme][Nme][Nme][Nme][Nme][Nme][Nme][Nme][Nme][Nme][Nme][Nme][Nme][X1][Dopa]K[Dopa]K[Dopa]-NH2) | significantly lower than on unmodified TiO2 sensors |  |
| COCCN(CC(=O)N(CCOC)CC(=O)N(CCOC)CC(=O)N(CCOC)CC(=O)N(CCOC)CC(=O)N(CCOC)CC(=O)N(CCOC)CC(=O)N(CCOC)CC(=O)N(CCOC)CC(=O)N(CCOC)CC(=O)N(CCOC)CC(=O)N(CCOC)CC(=O)N(CCOC)CC(=O)N(CCOC)CC(=O)N(CCOC)CC(=O)N(CCOC)CC(=O)N(CCOC)CC(=O)N(CCOC)CC(=O)N(CCOC)CC(=O)N(CCOC)CC(=O)N[C@@H](Cc1ccc(O)c(O)c1)C(=O)N[C@@H](CCCCN)C(=O)N[C@@H](Cc1ccc(O)c(O)c1)C(=O)N[C@@H](CCCCN)C(=O)N[C@@H](Cc1ccc(O)c(O)c1)C(N)=O)C(C)=O [PMP1, (Nme)20-(DOPA-Lys)2-DOPA] (Ac-[Nme][Nme][Nme][Nme][Nme][Nme][Nme][Nme][Nme][Nme][Nme][Nme][Nme][Nme][Nme][Nme][Nme][Nme][Nme][Nme][Dopa]K[Dopa]K[Dopa]-NH2; N-terminus and C-terminus assumed) |  | 15 ± 15 |

— patent US10676509B2, “Surface-immobilized antimicrobial peptoids” (Northwestern University, priority 2008, dated 2020)
